Pooled drug test results. Numbers come from NIAID ChemDB, via PubChem.

Shared fields: whole-cell or culture tests

MIC50, MIC90 and the like: level of inhibition, or share of isolates inhibited. Zones are inhibition diameters on agar. Blank or dashed fields: not listed here. a–b is a range or a potency band. Lines come from different laboratories, so protocols vary. Inhibition is in % at the dose shown (toxicity tests: loss of growth or viability).

compound | read by | organism | tested at | measure | strain | value
CCC(C)CC(C)CCCCCCCCC(=O)N[C@H]1C[C@@H](O)[C@H](NCCN)NC(=O)[C@@H]2[C@@H](O)CCN2C(=O)[C@H]([C@H](O)CCN)NC(=O)[C@H]([C@H](O)[C@@H](O)c2ccc(O)cc2)NC(=O)[C@@H]2C[C@@H](O)CN2C(=O)[C@H]([C@@H](C)O)NC1=O | - | Candida lusitaniae | - | MIC50 | - | 0.015–4 µg/mL
CC(C)N=C(N)c1ccc2nc(-c3ccc4c(c3)Cc3cc(-c5nc6ccc(C(N)=NC(C)C)cc6[nH]5)ccc3-4)[nH]c2c1 | - | Candida albicans | - | Geometric mean MFC | 21 strains | 2.28 µg/mL
C[C@H]1[C@H](O)[C@@H](C)/C=C/C=C/C=C/C=C/C=C/C=C/C=C/[C@H](O[C@@H]2O[C@H](C)[C@@H](O)[C@H](N)[C@@H]2O)C[C@@H]2O[C@](O)(C[C@@H](O)C[C@@H](O)CC[C@H](O)[C@@H](O)C[C@@H](O)CC(=O)O[C@H]1C)C[C@H](O)[C@H]2C(=O)O | broth dilution | Candida lusitaniae | - | MIC | FMR 9474 | 0.25 µg/mL
O=C(CCn1ccnc1)c1ccc(Br)cc1 | broth dilution | Candida kefyr | - | MIC | RTCC 1019 | 4 µg/mL
Cc1ccc(/C=N/Nc2ccnc3cc(Cl)ccc23)cc1 | - | Candida lipolytica | - | MIC | - | 40 µg/mL
O=C1S/C(=C\c2ccoc2)C(=O)N1CC(O)(Cn1nccn1)c1ccc(F)cc1F | - | Candida colliculosa | - | MIC50 | Fluconazole-resistant 0710922 | 1.16 µg/mL
OC(CCn1ccnc1)c1ccc(-c2ccccc2)cc1 | broth dilution | Candida guilliermondii | - | MIC | RTCC1248 | >64 µg/mL
O=C1C(Cl)=C(Oc2cccc(N3CC(C(=O)N/N=C/c4ccc(Br)cc4)CC3=O)c2)C(=O)c2ccccc21 | - | Candida tenuis | - | MIC | VCM Y-70 | 1.9 µg/mL
O=C(CCn1ccnc1)c1cccc(C(O)c2ccc(Cl)c(Cl)c2)c1 | broth dilution | Candida guilliermondii | - | MIC | RTCC1248 | 32 µg/mL
COc1cc2oc3cc(O)cc(O)c3c(=O)c2c2c1OC(C)(C)C=C2 | broth dilution | Candida spp. | - | MIC | - | >64 µg/mL
COc1ccc(/C=N/O)cc1 | - | Candida famata | - | MIC100 | - | 6620 µM
CC(CC(=O)NN=Cc1cccs1)n1c2c(=O)c3ccccc3c(=O)c=2oc2ccccc21 | - | Candida tenuis | - | MIC | VKM Y-70 | 3.9 µg/mL
C=CCc1ccc(OC)c(OC)c1 | turbidity | Candida glabrata | - | MIC90 | 2965 | 340 µg/mL
Clc1ccc(C(c2ccccc2)n2cnc3ccccc32)cc1 | agar | Candida dubliniensis | - | MIC90 | - | 128 µg/mL
O/N=C/c1ccc(O)cc1 | - | Candida lipolytica | - | MIC100 | - | >7290 µM
O=C(c1ccccc1)C(c1ccccc1)n1ccnc1 | broth dilution | Candida dubliniensis | - | MFC | - | 256 µg/mL
CN[C@@H]1[C@H](O[C@H]2[C@H](O[C@H]3[C@H](O)[C@@H](O)[C@H](N=C(N)N)[C@@H](O)[C@@H]3N=C(N)N)O[C@@H](C)[C@]2(O)C=O)O[C@@H](CO)[C@H](O)[C@H]1O | agar diffusion / agar | Candida spp. | 450 µg/well | zone | - | 12.4 mm
Cc1ccc(-n2cc(C(C)(C)O)nn2)cc1C | broth dilution | Candida parapsilosis | 2048 µg/mL | inhibition | URM 3621 | 0%
O=C(CCn1ccnc1)c1cccc2ccccc12 | broth dilution | Candida guilliermondii | - | MIC | RTCC 1377 | 64 µg/mL
COc1c(O)ccc2c(=O)c3c(O)cc4c(c3oc12)C(C)(C)C(C)O4 | broth dilution | Candida spp. | - | MIC | - | >64 µg/mL
O/N=C\c1cccs1 | - | Candida famata | - | MIC | - | 3930 µM
CCOC(=O)CC(C)n1c2c(=O)c3ccccc3c(=O)c=2oc2ccccc21 | - | Candida tenuis | - | MIC | VKM Y-70 | 250 µg/mL
Cc1ccc(C(O)c2cccc(C(=O)CCn3ccnc3)c2)cc1 | broth dilution | Candida guilliermondii | - | MIC | RTCC 1377 | 64 µg/mL
COC(=O)C1CC(=O)N(c2cccc(OC3=C(Cl)C(=O)c4ccccc4C3=O)c2)C1 | - | Candida tenuis | - | MIC | VCM Y-70 | 62.5 µg/mL
OC(Cn1cncn1)(Cn1cncn1)c1ccc(F)cc1F | agar | Candida guilliermondii | - | MIC | - | 12.5–25 µg/mL
COc1cc(C2Oc3ccc4c(=O)c5c(O)cc(O)cc5oc4c3OC2CO)cc(OC)c1O | broth dilution | Candida spp. | - | MIC100 | - | >64 µg/mL
O=C1C2=C(OC(CI)C2)C(=O)c2ccccc21 | broth dilution | Candida tropicalis | - | MIC | Clinical isolate | 40.32 µg/mL
C/C(=N/O)C(Cl)(Cl)Cl | - | Candida famata | - | MIC | - | 3220 µM
O=C1C(Oc2cccc(N3CC(c4nnco4)CC3=O)c2)=C(Oc2cccc(N3CC(c4nnco4)CC3=O)c2)C(=O)c2ccccc21 | - | Candida tenuis | - | MIC | VCM Y-70 | 3.9 µg/mL
COc1ccc(/C=N\O)cc1 | broth dilution | Candida famata | - | MFC | - | 6620 µM
O=C1C(Oc2cccc(N3CC(C(=O)N/N=C/c4ccc(Br)cc4)CC3=O)c2)=C(Oc2cccc(N3CC(C(=O)N/N=C/c4ccc(Br)cc4)CC3=O)c2)C(=O)c2ccccc21 | - | Candida tenuis | - | MIC | VCM Y-70 | 250 µg/mL
O/N=C\c1ccccc1Cl | - | Candida lipolytica | - | MIC100 | - | 2850 µM
CCCCCCCCCCCCCCCC(=O)NC(CCCCN)C(=O)NC(CCCCN)C(N)=O | broth dilution | Candida guilliermondii | - | MIC | 4783 | 8 µg/mL
CC(CC(=O)NN=Cc1ccco1)n1c2c(=O)c3ccccc3c(=O)c=2oc2ccccc21 | - | Candida tenuis | - | MIC | VKM Y-70 | 62.5 µg/mL
CCCCCCCC/C=C\CCCCCCCC(=O)N[C@H](C(=O)N1C[C@H](C)C[C@H]1C(=O)N[C@H](C(=O)N[C@@H](CCO)C(=O)N[C@@H](C)C=O)C(C)C)[C@@H](C)O | broth dilution / visual reading | Candida lusitaniae | - | MIC | ATCC34449 | 2 µg/mL
Clc1ccc(C(c2ccccc2)n2nnc3ccccc32)cc1 | agar | Candida glabrata | - | MIC90 | - | >256 µg/mL
Nc1ncccc1-c1cc(Cc2ccc(COc3ccccn3)cc2)no1 | broth dilution | Candida glabrata | - | MIC | 8653 | 0.03 µg/mL
C[C@@H](c1ncncc1F)[C@](O)(Cn1cncn1)c1ccc(F)cc1F | - | Candida guilliermondii | - | MIC50 | - | 0.008–2 µg/mL
CC(CC(=O)O)Nc1ccccc1Oc1nc2ccccc2nc1Cl | - | Candida tenuis | - | MIC | VKM Y-70 | 125 µg/mL
COc1ccc(C(c2ccc(OC)cc2)n2cncn2)cc1 | broth dilution | Candida dubliniensis | - | MFC | - | >256 µg/mL
COc1ccc(C=NNC(=O)CC(C)n2c3c(=O)c4ccccc4c(=O)c=3oc3ccccc32)cc1 | - | Candida tenuis | - | MIC | VKM Y-70 | 125 µg/mL
CCC(C)CC(C)CCCCCCCCC(=O)N[C@H]1C[C@@H](O)[C@H](NCCN)NC(=O)[C@@H]2[C@@H](O)CCN2C(=O)[C@H]([C@H](O)CCN)NC(=O)[C@H]([C@H](O)[C@@H](O)c2ccc(O)cc2)NC(=O)[C@@H]2C[C@@H](O)CN2C(=O)[C@H]([C@@H](C)O)NC1=O | broth dilution | Candida glabrata | - | MIC | 8658 | 2 µg/mL
c1ccc(C(c2ccccc2)n2cnc3ccccc32)cc1 | agar | Candida dubliniensis | - | MIC90 | - | >256 µg/mL

Repeating the final 6 entries:

compound	read by	organism	tested at	measure	strain	value
C[C@@H](c1ncncc1F)[C@](O)(Cn1cncn1)c1ccc(F)cc1F	-	Candida guilliermondii	-	MIC50	-	0.008–2 µg/mL
CC(CC(=O)O)Nc1ccccc1Oc1nc2ccccc2nc1Cl	-	Candida tenuis	-	MIC	VKM Y-70	125 µg/mL
COc1ccc(C(c2ccc(OC)cc2)n2cncn2)cc1	broth dilution	Candida dubliniensis	-	MFC	-	>256 µg/mL
COc1ccc(C=NNC(=O)CC(C)n2c3c(=O)c4ccccc4c(=O)c=3oc3ccccc32)cc1	-	Candida tenuis	-	MIC	VKM Y-70	125 µg/mL
CCC(C)CC(C)CCCCCCCCC(=O)N[C@H]1C[C@@H](O)[C@H](NCCN)NC(=O)[C@@H]2[C@@H](O)CCN2C(=O)[C@H]([C@H](O)CCN)NC(=O)[C@H]([C@H](O)[C@@H](O)c2ccc(O)cc2)NC(=O)[C@@H]2C[C@@H](O)CN2C(=O)[C@H]([C@@H](C)O)NC1=O	broth dilution	Candida glabrata	-	MIC	8658	2 µg/mL
c1ccc(C(c2ccccc2)n2cnc3ccccc32)cc1	agar	Candida dubliniensis	-	MIC90	-	>256 µg/mL